Anti-infective test results gathered from many reports (values: NIAID ChemDB through PubChem).

Shared fields: growth or infection tests; agent: Hepatitis B virus; method: PCR; endpoint: EC50

ECn: concentration that inhibits the pathogen or its effect by n%. a–b is a range or a potency band. An empty or dashed field is not shown. Rows are shuffled and stem from different studies.

| smiles | conditions | cells | strain or isolate | result |
|---|---|---|---|---|
| CC[C@H](CCC(C)[C@H]1CC[C@H]2[C@@H]3CCC4=CC(=O)CC[C@]4(C)[C@H]3CC[C@]12C)C(C)C |  | HepG2.2.15 |  | 166 µM |
| C[C@@H](Cn1cnc2c(N)nc(N)nc21)OCP(=O)(O)O |  | HepAD38 |  | 7.6 µM |
| O=C(C=Cc1ccc(O)c(O)c1)O[C@@H]1C[C@](O)(C(=O)O)C[C@@H](O)[C@H]1O |  | HepG2.2.15 |  | 5.5 µM |
| O=C(/C=C/c1ccccc1)[Se]c1ccccc1 |  | HepG2.2.15 |  | 1.6 µM |
| CC(C)N=C1NC2=C(CCN(C(=O)c3ccc(Br)c(Cl)c3)C2)S(=O)(=O)N1c1ccccc1 |  | HepG2.117 | Genotype D | 0.1–1 µM |
| O=C(/C=C/C=C/c1ccccc1)[Se]c1ccccc1 |  | HepG2.2.15 |  | 16.3 µM |
| COC(=O)C1(O)C[C@H](O)C(OC(=O)/C=C/c2ccc(O)c(O)c2)[C@@H](O)C1 |  | HepG2.2.15 |  | 175.3 µM |
| CC(C)CC1=NC2=C(CCN(C(=O)c3ccc(Br)c(Cl)c3)C2)S(=O)(=O)N1Cc1ccccc1 |  | HepG2.117 | Genotype D | >1 µM |
| O=C(/C=C/C=C/c1ccc(O)c(O)c1)[Se]c1ccccc1 |  | HepG2.2.15 |  | 6.3 µM |
| CO[C@@H]1O[C@H](COC(=O)/C=C/c2ccc(O)c(O)c2)[C@@H](O)[C@H](O)[C@H]1O |  | HepG2.2.15 |  | 6.84 µM |
| COc1ccc(N2C(=NC(C)C)NC3=C(CCN(C(=O)c4ccc(Br)c(Cl)c4)C3)S2(=O)=O)cc1 |  | HepG2.117 cells | Genotype D | 0.1–1 µM |
| Cc1ccc(/C=C/C=C/C(=O)[Se]c2ccccc2)cc1 |  | HepG2.2.15 |  | 3.7 µM |
| O=C(/C=C/c1ccc(O)c(O)c1)O[C@H]1CC(O)(C(=O)O)C[C@H](OC(=O)/C=C/c2ccc(O)c(O)c2)C1O |  | HepG2.2.15 |  | 6.4 µM |
| Cc1cc(OCCOCP(=O)(O)O)nc(N)n1 |  | HEPAD79 |  | >300 µM |
| COc1cc(/C=C/C(=O)[Se]c2ccccc2)ccc1O |  | HepG2.2.15 |  | 19.7 µM |
| COc1ccc([C@H]2OC[C@H]3[C@@H]2CO[C@@H]3c2ccc(OC)c(O)c2)cc1O |  | HepG2.2.15 |  | 10.92 µM |
| CC(C)CO[C@H]1O[C@@H]2OC3(C)CC[C@H]4[C@H](C)CCC([C@H]1C)[C@@]24OO3 |  |  |  | <0.1 µM |
| O=C(/C=C/c1ccc(O)c(O)c1)O[C@H]1[C@@H](OC(=O)/C=C/c2ccc(O)c(O)c2)C[C@](O)(C(=O)O)C[C@@H]1O |  | HepG2.2.15 |  | 9.8 µM |
| N#Cc1c(N)nc(N)nc1OCCOCP(=O)(O)O |  | HEPAD79 |  | 0.5 µM |
| O=C(/C=C/c1ccc(O)cc1)[Se]c1ccccc1 |  | HepG2.2.15 |  | 7.4 µM |
| O=C(O)c1ccccc1O |  | HepG2.2.15 |  | 25.8 µM |
| O=C(/C=C/C=C/c1ccc(Br)cc1)[Se]c1ccccc1 |  | HepG2.2.15 |  | 6.7 µM |
| CC(C)=CCC[C@](C)(OC1OC(COC2OCC(O)C(O)C2O)C(O)C(O)C1O)[C@H]1CC[C@]2(C)[C@@H]1[C@H](O)C[C@@H]1[C@@]3(C)CC[C@H](O)C(C)(C)[C@@H]3[C@@H](OC3OC(CO)C(O)C(O)C3OC3OC(CO)C(O)C(O)C3O)C[C@]12C | 4 d | HepG2.2.15 |  | 3.206 µM |

Repeating the final 3 entries:

smiles	conditions	cells	strain or isolate	result
O=C(O)c1ccccc1O		HepG2.2.15		25.8 µM
O=C(/C=C/C=C/c1ccc(Br)cc1)[Se]c1ccccc1		HepG2.2.15		6.7 µM
CC(C)=CCC[C@](C)(OC1OC(COC2OCC(O)C(O)C2O)C(O)C(O)C1O)[C@H]1CC[C@]2(C)[C@@H]1[C@H](O)C[C@@H]1[C@@]3(C)CC[C@H](O)C(C)(C)[C@@H]3[C@@H](OC3OC(CO)C(O)C(O)C3OC3OC(CO)C(O)C(O)C3O)C[C@]12C	4 d	HepG2.2.15		3.206 µM